# Results of single-concentration screens

Each number is a percent effect as filed.
How 0% and 100% were set is not recorded. Most values in the screen are low, and negative values occur.
Many other results are left out here, so strong results are more common than in the screen.

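Whole-cell growth test on Mycobacterium tuberculosis, read after 4 days in a medium based on cholesterol and the lipid DPPC; the read-out is not stated. Compounds at 500 µM. Direction is inferred from retests: higher values go with more growth inhibition. About 18,000 compounds were tested under these conditions; 5% (about 900) showed 50% or more at least once.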

| # | compound | Percent Effect |
|---|---|---|
| 1 | `CCC(CC)C(O)CNC(=O)Cn1cnnn1` (centres unmarked) | -19.89 |
| 2 | `Cc1occc1C(=O)NCC1(N(C)C)CCOCC1` | -13.85 |
| 3 | `CN(CCC(N)=O)Cc1ccc(Cl)s1` | 38.99 |
| 4 | `CCCN(Cc1cccc(C#N)c1)C1CCS(=O)(=O)C1` (centres unmarked) | 11.88 |
| 5 | `CSCC(C)(O)CNC(=O)c1cc(C(C)C)[nH]n1` (centres unmarked) | 10.01 |
| 6 | `CCNC(=O)N1CCN(c2ccncc2Cl)CC1` | 8.085 |
| 7 | `CNC(=O)CN(CCO)Cc1cc(Br)ccc1F` | 5.191 |
| 8 | `CCCN(CCC)S(=O)(=O)N1CCNCC1` | 0.5007 |
| 9 | `COc1ccc(CNC(=O)c2cnsn2)cc1` | -10.32 |
| 10 | `CN(CCCOc1ccc(S(C)(=O)=O)cc1)CC(N)=O` | 13.53 |
| 11 | `CC(=O)N1CCC(CN)CC1` | -1.579 |
| 12 | `NC(CO)c1nc2ccccc2[nH]1` (centres unmarked) | -19.54 |
| 13 | `CC(C)(C)N1CCCN(C(=O)c2cc(Cl)c[nH]2)CC1` | 1.244 |
| 14 | `COc1ccccc1OCC(C)N` (centres unmarked) | -9.596 |
| 15 | `Cc1c[nH]c(C(=O)NC2COc3ccccc3C2)n1` (centres unmarked) | 22.14 |
| 16 | `Cc1cc(C(=O)CCC(=O)NC(C)CO)c(C)s1` (centres unmarked) | 7.838 |
| 17 | `CC(C)C1CNCCO1` (centres unmarked) | -15.37 |
| 18 | `CCOCCN1CCN(Cc2cnn(C)c2)CC1C` (centres unmarked) | -10.49 |
| 19 | `Cc1nnnn1CCC(=O)NCc1cn2ccsc2n1` | 16.46 |
| 20 | `N#CCCNC(=O)CN1CCCC1` | -19.07 |
| 21 | `Cc1ccc(-c2cc(C(N)=O)[nH]n2)cc1C` | -2.528 |
| 22 | `O=C1CNCN1Cc1ccccc1` | 0.3151 |
| 23 | `O=C(CCC(F)(F)F)Nc1ccc2[nH]nnc2c1` | 24.48 |
| 24 | `NC(=O)CNc1cccc2ccccc12` | -1.309 |
| 25 | `O=C(CSc1ccc(F)cc1)N1CCC1` | 60.58 |
| 26 | `CC(=O)NC(c1cnc2ccccc2c1)[C@H]1C[C@@H](O)C1` (some centres unmarked) | -10.73 |
| 27 | `CN1CCCN(C(=O)c2ccc(F)cc2)CC1` | -6.885 |
| 28 | `NCc1ccc(N2CCC(O)CC2)cc1` | 9.731 |
| 29 | `CCCc1cc(CN(C)C(=O)c2ccnnc2)n[nH]1` | 8.012 |
| 30 | `CC(C)CC(C)Oc1cc(CNS(N)(=O)=O)ccn1` (centres unmarked) | 38.59 |
| 31 | `Brc1ccc2c(c1)OCCNC2` | 53.73 |
| 32 | `CCS(=O)(=O)N1CCC2(CC1)OCCO2` | 12.37 |
| 33 | `O=C(CC1(O)CCCCC1)NCc1ncccc1F` | 42.38 |
| 34 | `CC(NCCCn1cccn1)c1ccc2c(c1)OCO2` (centres unmarked) | 26.75 |
| 35 | `Fc1ccc(NCC2CCC3(CC2)OCCO3)nc1` | 77.02 |
| 36 | `CC(C)(C)c1noc(CO)n1` | -0.5599 |
| 37 | `CCN1CCN(S(=O)(=O)c2cc(C)ccc2OC)CC1` | 16.47 |
| 38 | `COc1cccc(OC(C)CN)c1` (centres unmarked) | 6.132 |
| 39 | `COCCc1noc(-c2cnsn2)n1` | -9.854 |
| 40 | `Cc1cc(NC(=O)CN2CCC(CO)CC2)n(C)n1` | 4.13 |
| 41 | `CC(C)CCNC(=O)Nc1ccc(S(C)(=O)=O)cc1` | 73.24 |
| 42 | `CC(OC(=O)c1ccccc1NCCO)C(N)=O` (centres unmarked) | 11.93 |
| 43 | `CC(O)c1ccc2c(c1)CC(=O)N2` (centres unmarked) | 2.155 |
| 44 | `COc1cccc(Nc2nccc(=O)[nH]2)c1` | -4.619 |
| 45 | `Cc1nc2c(cc1C(=O)NCC1CC1)c(C)nn2C` | -12.36 |
| 46 | `Cc1cnc(C)c(N2CCNCC2)n1` | 3.203 |
| 47 | `CC(CC(C)(C)O)NCCSc1cnn[nH]1` (centres unmarked) | 5.825 |
| 48 | `CN1CCN(CC2CCNCC2)CC1` | -18.96 |

For reference, 6 entries once more:

* CN1CCCN(C(=O)c2ccc(F)cc2)CC1 : -6.885%
* O=C(CSc1ccc(F)cc1)N1CCC1 : 60.58%
* CSCC(C)(O)CNC(=O)c1cc(C(C)C)[nH]n1 (centres unmarked) : 10.01%
* Cc1occc1C(=O)NCC1(N(C)C)CCOCC1 : -13.85%
* COc1ccccc1OCC(C)N (centres unmarked) : -9.596%
* CC(=O)N1CCC(CN)CC1 : -1.579%

Source: ChEMBL document CHEMBL3988442, “University of Dundee, Small-Polar-MMV Screening Library” (2021).